Pooled drug test results. Numbers come from NIAID ChemDB, via PubChem.

Shared fields: whole-cell or culture tests; organism: Hepatitis C virus

Two numbers with a dash give a range or band.

{"compound": "CCC(C)C(NC(=O)N[C@H](C(=O)N1C[C@H]2C([C@H]1C(=O)NC(CC1CC1)C(=O)C(N)=O)C2(C)C)C(C)(C)C)C(=O)OCc1ccccc1", "read by": "replicon", "endpoint": "EC90", "result": "0.4 µM"}
{"compound": "CN(C)c1ccc2c(c1)Cc1cc(NC(N)=S)ccc1-2", "cells": "Ava5-EG(delta4AB)SEAP", "read by": "reporter gene / fluorescence", "endpoint": "EC50", "result": "0.001–1 µM"}
{"compound": "CC(C)[C@@](C)(NC(=O)NC(C(=O)N1C[C@H]2C([C@H]1C(=O)NC(CC1CC1)C(=O)C(N)=O)C2(C)C)C(C)(C)C)C(=O)O", "read by": "replicon", "endpoint": "EC90", "result": "18 µM"}
{"compound": "C[C@@]1(F)[C@H](O)[C@@H](CO)O[C@H]1n1ccc(N)nc1=O", "strain": "WILD TYPE", "read by": "replicon / PCR", "endpoint": "EC90", "result": "4.9 µM"}
{"compound": "CCCCn1c(=O)c2cc(OC)ccc2c2cc(C(O)(C(F)(F)F)C(F)(F)F)c3c(c21)OCO3", "strain": "1b", "cells": "LucNeo2 cells", "read by": "PCR", "endpoint": "EC50", "result": "0.14 µM"}
{"compound": "Cc1onc(C(=O)N2c3cccc(O)c3NC3=C(C(=O)CC(C)(C)C3)C2c2ccc(OCc3ccccc3)cc2F)c1COc1ccccc1", "strain": "1b", "read by": "luciferase / reporter gene / replicon", "endpoint": "EC50", "result": "1.39 µM"}
{"compound": "CC1(C)CC[C@@]2(C(=O)NCCOCCNC(=O)[C@]34CCC(C)(C)CC3C3=CCC5[C@@]6(C)CC[C@H](O)C(C)(C)C6CC[C@@]5(C)[C@]3(C)C[C@H]4O)C(C1)C1=CCC3[C@@]4(C)CC[C@H](O)C(C)(C)C4CC[C@@]3(C)[C@]1(C)C[C@H]2O", "cells": "Huh7", "read by": "luciferase / entry", "endpoint": "inhibition", "dose": "1 µM", "result": "73.7%"}
{"compound": "C=CCNC(=O)C(=O)C(CCCC)NC(=O)[C@@H]1C2[C@H](CN1C(=O)[C@@H](NC(=O)N[C@H](C(=O)OC(C)C)C(C)(C)C)C(C)(C)C)C2(C)C", "read by": "replicon", "endpoint": "EC90", "result": "0.8 µM"}
{"compound": "Cc1ccc(CN2CCC(C(=O)Nc3ccc(Oc4ccccc4F)cc3)CC2)o1", "strain": "JFH-1", "cells": "Huh7", "read by": "PCR", "endpoint": "inhibition", "dose": "15 µM", "result": "≥40%"}
{"compound": "CC(C)OC(=O)N[C@H](C(=O)N1C[C@H](OC(C)(C)C)CC1C(=O)NC(CC1CC1)C(=O)C(=O)NCC(=O)N[C@H](C(=O)N(C)C)c1ccccc1)C(C)(C)C", "read by": "replicon", "endpoint": "EC90", "result": "2 µM"}
{"compound": "CC1(C)CC[C@@]2(C(=O)NCc3cn(CCO)nn3)C(C1)C1=CCC3[C@@]4(C)CC[C@H](O)C(C)(C)C4CC[C@@]3(C)[C@]1(C)C[C@H]2O", "cells": "Huh7", "read by": "luciferase / entry", "endpoint": "inhibition", "dose": "5 µM", "result": "62.5%"}
{"compound": "CC(=O)OC[C@]12[C@H](OC(C)=O)[C@H](OCc3ccccc3)[C@@H]3[C@@H](OC(C)=O)[C@@]14O[C@@]3(C)COC(=O)c1cccnc1C(C)C(C)C(=O)O[C@@H]([C@H](OC(C)=O)[C@@H]2OC(C)=O)[C@]4(C)O", "strain": "Cell culture J6/JFH-1", "cells": "Huh7.5", "endpoint": "inhibition", "dose": "50 µM", "result": "99%"}
{"compound": "O=C(N[C@@H](C(=O)N1CCC[C@H]1c1ncc(-c2ccc(-c3ccc(-c4cnc([C@@H]5CCCN5C(=O)[C@H](NC(=O)C5CC5)c5ccccc5)s4)cc3)cc2)s1)c1ccccc1)C1CC1", "strain": "genotype 1b", "mutations": "P58L", "cells": "Huh7.5", "read by": "luciferase / reporter gene", "endpoint": "fold resistance", "result": "376"}
{"compound": "CC1(C)CC(=O)C2=C(C1)Nc1c(O)cccc1N(C(=O)C(N)=O)C2c1ccc(OCc2ccccc2)cc1F", "strain": "1b", "read by": "luciferase / reporter gene / replicon", "endpoint": "EC50", "result": "9.12 µM"}
{"compound": "CC(C)CC(NC(=O)NC(C(=O)N1C[C@H]2C([C@H]1C(=O)NC(CC1CC1)C(=O)C(N)=O)C2(C)C)C(C)(C)C)C(=O)O", "read by": "replicon", "endpoint": "EC90", "result": "20 µM"}
{"compound": "CN(C)CCCNC(=O)CCC(=O)N1c2cccc(O)c2NC2=C(C(=O)CC(C)(C)C2)C1c1ccc(OCc2ccccc2)cc1Cl", "strain": "1b", "read by": "luciferase / reporter gene / replicon", "endpoint": "EC50", "result": "38.38 µM"}
{"compound": "CC1(C)CC[C@@]2(C(=O)NCc3cn(Cc4ccc(Cn5cc(CNC(=O)[C@]67CCC(C)(C)CC6C6=CCC8[C@@]9(C)CC[C@H](O)C(C)(C)C9CC[C@@]8(C)[C@]6(C)C[C@H]7O)nn5)cc4)nn3)C(C1)C1=CCC3[C@@]4(C)CC[C@H](O)C(C)(C)C4CC[C@@]3(C)[C@]1(C)C[C@H]2O", "cells": "Huh7", "read by": "luciferase / entry", "endpoint": "inhibition", "dose": "1 µM", "result": "88.9%"}
{"compound": "COC(=O)N[C@H](C(=O)N1CCCC1c1ncc(-c2ccc(-c3ccc(-c4cnc([C@@H]5CC(C)CN5C(=O)[C@@H](NC(=O)CO)C(C)C)[nH]4)cc3)cc2)[nH]1)C(C)C", "strain": "1b", "mutations": "ZL31W", "cells": "ET", "read by": "luciferase", "endpoint": "EC50", "result": "0.000045 µM"}
{"compound": "CC1(C)CC(=O)C2=C(C1)Nc1c(O)cccc1NC2c1ccc(OCc2ccccc2)cc1F", "strain": "1b", "read by": "luciferase / reporter gene / replicon", "endpoint": "EC50", "result": "3.71 µM"}
{"compound": "NC(=S)Nc1cccc(OCCCOc2ccccc2-c2ccccc2)c1", "cells": "Ava5-EG(delta4AB)SEAP", "read by": "reporter gene / fluorescence", "endpoint": "EC50", "result": "0.001–1 µM"}
{"compound": "CC1(C)CC[C@@]2(C(=O)NCCCNC(=O)[C@]34CCC(C)(C)CC3C3=CCC5[C@@]6(C)CC[C@H](O)C(C)(C)C6CC[C@@]5(C)[C@]3(C)C[C@H]4O)C(C1)C1=CCC3[C@@]4(C)CC[C@H](O)C(C)(C)C4CC[C@@]3(C)[C@]1(C)C[C@H]2O", "cells": "Huh7", "read by": "luciferase / entry", "endpoint": "inhibition", "dose": "5 µM", "result": "58.2%"}
{"compound": "CC1(C)CC(=O)C2=C(C1)Nc1c(O)cccc1N(C(=O)c1cc(-c3ccccc3)on1)C2c1ccc(OCc2ccccc2)cc1F", "strain": "1b", "read by": "luciferase / reporter gene / replicon", "endpoint": "EC50", "result": "4.68 µM"}
{"compound": "NC(=S)Nc1ccc2c(c1)Cc1cc(NC(=O)c3ccno3)ccc1-2", "cells": "Ava5-EG(delta4AB)SEAP", "read by": "reporter gene / fluorescence", "endpoint": "EC50", "result": "0.001–1 µM"}
{"compound": "Cc1cccc(C(=O)N2c3cccc(O)c3NC3=C(C(=O)CC(C)(C)C3)C2c2ccc(OCc3ccc(F)cc3)cc2F)n1", "strain": "1b", "read by": "luciferase / reporter gene / replicon", "endpoint": "EC50", "result": "2.41 µM"}
{"compound": "CCCn1ncc(CN2CCC(C(=O)Nc3ccccc3-c3cccc(OC)c3)CC2)c1C", "strain": "JFH-1", "cells": "Huh7", "read by": "PCR", "endpoint": "inhibition", "dose": "15 µM", "result": "≥40%"}
{"compound": "CC(C)(C)OC(=O)[C@@H](NC(=O)N[C@H](C(=O)N1C[C@H]2C([C@H]1C(=O)NC(CC1CCC1)C(=O)C(N)=O)C2(C)C)C1Cc2ccccc2C1)C(C)(C)C", "read by": "replicon", "endpoint": "EC90", "result": "10 µM"}
{"compound": "COc1cccc(-c2ccccc2NC(=O)C2CCN(Cc3cc(C)c(O)c(C)c3)CC2)c1", "strain": "JFH-1", "cells": "Huh7", "read by": "PCR", "endpoint": "inhibition", "dose": "5 µM", "result": "≥70%"}
{"compound": "COc1cc(Cn2cc(CNC(=O)[C@]34CCC(C)(C)CC3C3=CCC5[C@@]6(C)CC[C@H](O)C(C)(C)C6CC[C@@]5(C)[C@]3(C)C[C@H]4O)nn2)c(OC)cc1Cn1cc(CNC(=O)[C@]23CCC(C)(C)CC2C2=CCC4[C@@]5(C)CC[C@H](O)C(C)(C)C5CC[C@@]4(C)[C@]2(C)C[C@H]3O)nn1", "cells": "Huh7", "read by": "luciferase / entry", "endpoint": "inhibition", "dose": "1 µM", "result": "68.5%"}
{"compound": "C=CCn1cc(CN2CCC(C(=O)Nc3cccc(-c4cccc(F)c4)c3)CC2)c(C)n1", "strain": "JFH-1", "cells": "Huh7", "read by": "PCR", "endpoint": "inhibition", "dose": "5 µM", "result": "≥40%"}
{"compound": "COc1cc([C@@H]2O[C@H](c3cc(OC)c4c(c3)OCO4)[C@@H](C)[C@@H]2C)cc(OC)c1OC", "strain": "Subgenomic replicon JFH-1", "cells": "Huh7.5", "read by": "luciferase", "endpoint": "inhibition", "dose": "12.5 µM", "result": "92%"}
{"compound": "CC(C)(C)C(NC(=O)N[C@H](C(=O)N1C[C@H]2C([C@H]1C(=O)NC(CC1CC1)C(=O)C(=O)NCc1ccccc1)C2(C)C)C(C)(C)C)C(=O)O", "read by": "replicon", "endpoint": "EC90", "result": "20 µM"}
{"compound": "O=C(Nc1cccc(-c2cscn2)c1)C1CCN(C/C=C/c2ccc(F)cc2)CC1", "strain": "JFH-1", "cells": "Huh7", "read by": "PCR", "endpoint": "inhibition", "dose": "15 µM", "result": "<40%"}
{"compound": "S=C(Nc1ccc(N2CCOCC2)cc1)Nc1ccc2c(c1)Cc1cc(Br)ccc1-2", "cells": "Ava5-EG(delta4AB)SEAP", "read by": "reporter gene / fluorescence", "endpoint": "EC50", "result": "0.001–1 µM"}
{"compound": "COc1cccc(CN2CCC(C(=O)Nc3ccc(-c4nc5ccccc5[nH]4)cc3)CC2)c1", "strain": "JFH-1", "cells": "Huh7", "read by": "PCR", "endpoint": "inhibition", "dose": "5 µM", "result": "≥40%"}
{"compound": "CC1CCC(C(=O)N(c2cc(C#CC(C)(C)C)sc2C(=O)O)C2CCC(O)CC2)CC1", "strain": "H77 (GT1a)", "mutations": "L419S", "cells": "Huh7", "read by": "luciferase", "endpoint": "fold resistance", "result": "134.6"}
{"compound": "CC(C)(C)C(NC(=O)N[C@H](C(=O)N1C[C@H]2C([C@H]1C(=O)NC(CC1CC1)C(=O)C(N)=O)C2(C)C)C(C)(C)C)C(=O)OCc1ccc(F)cc1", "read by": "replicon", "endpoint": "EC90", "result": "0.1 µM"}

4 of the rows above, restated:

{"compound": "CC(C)(C)C(NC(=O)N[C@H](C(=O)N1C[C@H]2C([C@H]1C(=O)NC(CC1CC1)C(=O)C(N)=O)C2(C)C)C(C)(C)C)C(=O)OCc1ccc(F)cc1", "read by": "replicon", "endpoint": "EC90", "result": "0.1 µM"}
{"compound": "CCCn1ncc(CN2CCC(C(=O)Nc3ccccc3-c3cccc(OC)c3)CC2)c1C", "strain": "JFH-1", "cells": "Huh7", "read by": "PCR", "endpoint": "inhibition", "dose": "15 µM", "result": "≥40%"}
{"compound": "CC1(C)CC[C@@]2(C(=O)NCCOCCNC(=O)[C@]34CCC(C)(C)CC3C3=CCC5[C@@]6(C)CC[C@H](O)C(C)(C)C6CC[C@@]5(C)[C@]3(C)C[C@H]4O)C(C1)C1=CCC3[C@@]4(C)CC[C@H](O)C(C)(C)C4CC[C@@]3(C)[C@]1(C)C[C@H]2O", "cells": "Huh7", "read by": "luciferase / entry", "endpoint": "inhibition", "dose": "1 µM", "result": "73.7%"}
{"compound": "COc1cccc(CN2CCC(C(=O)Nc3ccc(-c4nc5ccccc5[nH]4)cc3)CC2)c1", "strain": "JFH-1", "cells": "Huh7", "read by": "PCR", "endpoint": "inhibition", "dose": "5 µM", "result": "≥40%"}

Inhibition is in % at the dose shown (toxicity tests: loss of growth or viability). ECn is the concentration giving n% inhibition of infection, replication or growth. Fold resistance has wild type as its base. Rows are shuffled and stem from different studies.